Sequence variants of PSTVd stem 3 after infection

Reference: Wu et al. 2024, doi:10.1371/journal.ppat.1012142.

The pool varies stem 3 of the PSTVd intermediate strain in the pattern GUGGUUCCGNANNCNN; wild type is GUGGUUCCGGAACCGC (upper and lower strand joined, each 5' to 3', the first 8 letters being the upper strand).

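Three N. benthamiana plants were inoculated with the whole mutant pool. Samples came from the inoculated region at 5 days, the leaf margin at 10 and upper systemic leaves at 12.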

Numbers give reads per thousand; 0 = not seen among the reads, higher = more abundant. Each site shows the three plants. "Pool" is the share in the plasmid pool used as inoculum, on the same scale. The inoculated region was read from the minus strand, the other sites from the plus strand. Sequences that differ at fixed positions probably stem from PCR or sequencing errors, and defective variants can be carried along by functional ones. Samples held 27,691 to 54,225 reads, so the smallest values rest on one or two reads. For reference, wild type rose from 17.3 per thousand in the pool to 330, 345, 235 (inoculated region), 794, 766, 816 (leaf margin) and 830, 792, 869 (systemic leaves).

| sequence | pool | inoculated region | leaf margin | systemic leaves |
|---|---|---|---|---|
| GUGGUUCCGGAACCGA | 1.09 | 1.28 / 0.927 / 1.38 | 0.935 / 0.795 / 0.433 | 1.04 / 0.904 / 0.681 |
| GUGGUUCCGGAACCGC | 17.3 | 330 / 345 / 235 | 794 / 766 / 816 | 830 / 792 / 869 |
| GUGGUUCCGGAACCGG | 0.908 | 0.693 / 0.367 / 0.676 | 0.368 / 0.286 / 0.217 | 0.391 / 0.314 / 0.486 |
| GUGGUUCCGGAACCGU | 0.923 | 5.17 / 24.5 / 71.4 | 30.1 / 13.1 / 5.31 | 8.16 / 36.9 / 0.122 |
| GUGGUUCCGGAACCUA | 0.939 | 0.320 / 0.194 / 0.216 | 0 / 0.0318 / 0 | 0.0186 / 0.0184 / 0 |
| GUGGUUCCGGAACCUC | 0.939 | 1.01 / 0.733 / 0.811 | 0.680 / 0.732 / 0.542 | 0.690 / 0.811 / 0.778 |
| GUGGUUCCGGAACCUG | 0.893 | 0.347 / 0.496 / 0.162 | 0.0283 / 0 / 0 | 0.0186 / 0.0184 / 0 |
| GUGGUUCCGGAACCUU | 0.708 | 0.400 / 0.280 / 0.270 | 0 / 0 / 0 | 0 / 0 / 0 |
| GUGGUUCCGGAACGGC | 0.0154 | 0.0800 / 0.0431 / 0.0811 | 0.170 / 0.191 / 0.144 | 0.205 / 0.0922 / 0.219 |
| GUGGUUCCGGAACUGC | 0.108 | 0.240 / 0.259 / 0.243 | 0.368 / 0.859 / 0.650 | 0.335 / 0.498 / 0.170 |
| GUGGUUCCGGAAGCAA | 0.646 | 0.293 / 0.410 / 0.243 | 0 / 0.0318 / 0 | 0 / 0 / 0 |
| GUGGUUCCGGAAGCAC | 0.662 | 0.160 / 0.410 / 0.189 | 0 / 0 / 0 | 0 / 0 / 0 |
| GUGGUUCCGGAAGCAG | 0.754 | 0.320 / 0.216 / 0.216 | 0 / 0.0636 / 0.0722 | 0 / 0 / 0 |
| GUGGUUCCGGAAGCAU | 0.816 | 1.09 / 0.647 / 0.486 | 0 / 0.0318 / 0.217 | 0 / 0 / 0 |
| GUGGUUCCGGAAGCCA | 0.862 | 0.320 / 0.453 / 0.297 | 0.0283 / 0 / 0.0361 | 0 / 0 / 0 |
| GUGGUUCCGGAAGCCC | 0.600 | 0.293 / 0.431 / 0.324 | 0.0283 / 0.0636 / 0 | 0 / 0 / 0 |
| GUGGUUCCGGAAGCCG | 0.754 | 0.240 / 0.302 / 0.243 | 0 / 0.0318 / 0 | 0 / 0 / 0 |
| GUGGUUCCGGAAGCCU | 1.02 | 0.267 / 0.302 / 0.270 | 0 / 0.0318 / 0 | 0 / 0 / 0 |
| GUGGUUCCGGAAGCGA | 0.677 | 0.213 / 0.259 / 0.297 | 0 / 0.0636 / 0.0361 | 0 / 0 / 0 |
| GUGGUUCCGGAAGCGC | 0.954 | 5.17 / 13.3 / 13.9 | 8.33 / 33.9 / 18.7 | 13.4 / 17.1 / 23.7 |
| GUGGUUCCGGAAGCGG | 0.846 | 0.373 / 0.345 / 0.270 | 0 / 0 / 0.0722 | 0 / 0 / 0 |
| GUGGUUCCGGAAGCGU | 0.877 | 0.426 / 0.173 / 0.432 | 0 / 0.0318 / 0.0361 | 0 / 0 / 0 |
| GUGGUUCCGGAAGCUA | 0.785 | 0.160 / 0.367 / 0.297 | 0.0283 / 0 / 0.0361 | 0 / 0 / 0 |
| GUGGUUCCGGAAGCUC | 0.769 | 0.480 / 0.302 / 0.270 | 0 / 0 / 0.0722 | 0.0186 / 0.0184 / 0 |
| GUGGUUCCGGAAGCUG | 0.600 | 0.293 / 0.367 / 0.297 | 0 / 0 / 0 | 0 / 0 / 0 |
| GUGGUUCCGGAAGCUU | 0.769 | 0.400 / 0.323 / 0.297 | 0 / 0 / 0.0361 | 0 / 0 / 0 |
| GUGGUUCCGGAAUCAA | 1.65 | 1.55 / 2.01 / 1.35 | 0 / 0 / 0 | 0.335 / 0 / 0 |
| GUGGUUCCGGAAUCAC | 1.00 | 0.933 / 0.625 / 1.11 | 0.0567 / 1.02 / 0.506 | 0 / 0 / 0 |
| GUGGUUCCGGAAUCAG | 0.908 | 0.826 / 0.668 / 0.838 | 0.0283 / 0 / 0.0361 | 0 / 0 / 0 |
| GUGGUUCCGGAAUCAU | 0.954 | 0.853 / 0.668 / 0.946 | 0.0283 / 0 / 0 | 0 / 0 / 0 |
| GUGGUUCCGGAAUCCA | 1.06 | 0.213 / 0.345 / 0.243 | 0 / 0.0318 / 0 | 0 / 0 / 0 |
| GUGGUUCCGGAAUCCC | 0.816 | 0.480 / 0.367 / 0.162 | 0 / 0 / 0 | 0 / 0 / 0 |
| GUGGUUCCGGAAUCCG | 0.939 | 0.400 / 0.431 / 0.297 | 0.0283 / 0.0318 / 0.0361 | 0 / 0 / 0 |
| GUGGUUCCGGAAUCCU | 0.816 | 0.853 / 0.625 / 1.08 | 0 / 0.0318 / 0.397 | 0 / 0 / 0 |
| GUGGUUCCGGAAUCGA | 1.29 | 0.773 / 0.733 / 0.513 | 0.0567 / 0 / 0 | 0.0186 / 0 / 0 |
| GUGGUUCCGGAAUCGC | 1.11 | 0.773 / 0.518 / 0.567 | 0.227 / 0.414 / 0.253 | 0.596 / 0.203 / 0.195 |
| GUGGUUCCGGAAUCGG | 1.02 | 0.480 / 0.237 / 0.135 | 0 / 0.0318 / 0 | 0.0186 / 0 / 0 |
| GUGGUUCCGGAAUCGU | 3.48 | 2.67 / 1.90 / 2.81 | 0.283 / 0.0636 / 0.469 | 0.317 / 0 / 0 |
| GUGGUUCCGGAAUCUA | 2.45 | 1.20 / 1.44 / 1.16 | 0 / 0 / 0 | 0.186 / 0 / 0 |
| GUGGUUCCGGAAUCUC | 0.831 | 0.373 / 0.367 / 0.162 | 0 / 0 / 0.0361 | 0 / 0 / 0 |
| GUGGUUCCGGAAUCUG | 1.55 | 0.426 / 0.518 / 0.540 | 0 / 0 / 0 | 0 / 0 / 0 |
| GUGGUUCCGGAAUCUU | 0.908 | 0.693 / 0.755 / 0.919 | 0.0283 / 0 / 0.0361 | 0 / 0 / 0 |
| GUGGUUCCGGAAUGCG | 0.139 | 0.160 / 0.0863 / 0.0811 | 0 / 0 / 0 | 0 / 0 / 0 |
| GUGGUUCCGGACACAA | 0.831 | 0.187 / 0.173 / 0.324 | 0 / 0.0318 / 0.0361 | 0 / 0 / 0 |
| GUGGUUCCGGACACAC | 0.739 | 0.373 / 0.388 / 0.216 | 0 / 0.0318 / 0.0361 | 0 / 0 / 0 |
| GUGGUUCCGGACACAG | 0.646 | 0.400 / 0.388 / 0.297 | 0.0283 / 0.0954 / 0 | 0 / 0 / 0 |
| GUGGUUCCGGACACAU | 1.05 | 0.720 / 0.539 / 0.811 | 0 / 0 / 0 | 0 / 0 / 0 |
| GUGGUUCCGGACACCA | 0.816 | 0.480 / 0.323 / 0.432 | 0 / 0 / 0 | 0 / 0 / 0 |
| GUGGUUCCGGACACCC | 0.754 | 0.400 / 0.410 / 0.135 | 0 / 0 / 0.0361 | 0 / 0 / 0 |
| GUGGUUCCGGACACCG | 0.908 | 0.213 / 0.194 / 0.270 | 0 / 0 / 0 | 0 / 0 / 0 |
| GUGGUUCCGGACACCU | 0.769 | 0.240 / 0.302 / 0.405 | 0 / 0 / 0 | 0 / 0 / 0 |
| GUGGUUCCGGACACGA | 0.785 | 0.213 / 0.259 / 0.378 | 0 / 0 / 0.0361 | 0 / 0 / 0 |
| GUGGUUCCGGACACGC | 0.785 | 0.293 / 0.345 / 0.243 | 0 / 0 / 0 | 0 / 0 / 0 |
| GUGGUUCCGGACACGG | 0.846 | 0.533 / 0.431 / 0.216 | 0 / 0 / 0 | 0 / 0 / 0 |
| GUGGUUCCGGACACGU | 0.769 | 0.160 / 0.216 / 0.243 | 0 / 0.0318 / 0.0361 | 0 / 0 / 0 |
| GUGGUUCCGGACACUA | 1.57 | 0.613 / 0.755 / 0.865 | 0 / 0.350 / 0.0361 | 0.0932 / 0 / 0 |
| GUGGUUCCGGACACUC | 1.06 | 0.426 / 0.367 / 0.297 | 0 / 0.0636 / 0 | 0 / 0 / 0 |
| GUGGUUCCGGACACUG | 1.08 | 0.426 / 0.129 / 0.351 | 0 / 0.0318 / 0 | 0 / 0 / 0 |
| GUGGUUCCGGACACUU | 1.05 | 0.720 / 0.561 / 0.703 | 0.368 / 0 / 0.469 | 0 / 0 / 0 |
| GUGGUUCCGGACCCAA | 0.708 | 0.347 / 0.259 / 0.405 | 0 / 0.0318 / 0 | 0 / 0 / 0 |
| GUGGUUCCGGACCCAC | 0.769 | 0.347 / 0.388 / 0.405 | 0 / 0 / 0 | 0 / 0 / 0 |
| GUGGUUCCGGACCCAG | 0.939 | 0.187 / 0.302 / 0.486 | 0 / 0.0318 / 0.0722 | 0 / 0 / 0 |
| GUGGUUCCGGACCCAU | 1.05 | 0.960 / 0.841 / 0.946 | 0 / 0.0636 / 0 | 0 / 0 / 0 |
| GUGGUUCCGGACCCCA | 0.708 | 0.453 / 0.410 / 0.270 | 0 / 0 / 0 | 0 / 0 / 0 |
| GUGGUUCCGGACCCCC | 3.48 | 1.25 / 1.53 / 1.11 | 0 / 0.0318 / 0 | 0.261 / 0 / 0 |
| GUGGUUCCGGACCCCG | 0.754 | 0.453 / 0.345 / 0.135 | 0 / 0 / 0 | 0 / 0 / 0 |
| GUGGUUCCGGACCCCU | 1.08 | 0.426 / 0.237 / 0.108 | 0 / 0 / 0 | 0 / 0 / 0 |
| GUGGUUCCGGACCCGA | 0.877 | 0.560 / 0.237 / 0.108 | 0.0283 / 0.0318 / 0.0361 | 0 / 0 / 0 |
| GUGGUUCCGGACCCGC | 1.59 | 1.41 / 1.01 / 1.41 | 0.538 / 0.636 / 0.686 | 1.06 / 0.535 / 0.559 |
| GUGGUUCCGGACCCGG | 2.08 | 0.826 / 1.01 / 0.567 | 0.0567 / 0.0318 / 0.758 | 0.0746 / 0.0184 / 0 |